{"source": "PubChem BioAssay AID624099 (ICCB-Longwood, 2012)", "assay": "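Host factors E2 relies on to silence an HPV18 LCR reporter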 (primary screen)", "cell system": "human C33A cervical carcinoma cells (HPV-negative) stably expressing BPV1 E2 and an HPV18 LCR luciferase reporter", "knock-down reagent": "siRNA pool against human genes, 40 nM", "timing": "72 h", "measured": "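Per-well luciferase luminescence, z-scored on each plate against the plate mean and SD with control wells left out, then averaged across three replicate plates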", "reading the numbers": "mean z-score and z-score: higher = stronger reporter signal, weaker E2 silencing", "active means": "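Mean z ≥ 2 together with z ≥ 2 in two or more of the three replicates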", "note": "In all, the deposit lists about 21,000 reagents; below is a part drawn at random. Over the whole deposit, 497 (2.4%) got an active call. 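Higher z means weaker E2 silencing; only reporter increases were scored, and knock-downs that hurt cell survival may mask genuine repressor factors.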 A number with no mark means an inactive call."}
{"target": "TAC3", "mean z-score": 0.2, "z-score, replicate A": 0.23, "z-score, replicate B": 0.33, "z-score, replicate C": 0.04}
{"target": "LYSMD1", "mean z-score": -0.26, "z-score, replicate A": -0.25, "z-score, replicate B": -0.49, "z-score, replicate C": -0.06}
{"target": "GPX6", "mean z-score": -0.08, "z-score, replicate A": -0.39, "z-score, replicate B": 0.33, "z-score, replicate C": -0.19}
{"target": "RNF152", "mean z-score": 1.11, "z-score, replicate A": 1.16, "z-score, replicate B": 1.11, "z-score, replicate C": 1.07}
{"target": "SCFD2", "mean z-score": -2.16, "z-score, replicate A": -2.19, "z-score, replicate B": -2.19, "z-score, replicate C": -2.09}
{"target": "PRR14L", "mean z-score": -1.39, "z-score, replicate A": -1, "z-score, replicate B": -1.69, "z-score, replicate C": -1.48}
{"target": "CAMK2A", "mean z-score": -0.78, "z-score, replicate A": -1.05, "z-score, replicate B": -0.69, "z-score, replicate C": -0.59}
{"target": "GALE", "mean z-score": 0.77, "z-score, replicate A": 0.68, "z-score, replicate B": 1.01, "z-score, replicate C": 0.62}
{"target": "ELK1", "mean z-score": 1.17, "z-score, replicate A": 1.13, "z-score, replicate B": 1.14, "z-score, replicate C": 1.23}
{"target": "TAT", "mean z-score": 0.74, "z-score, replicate A": 0.71, "z-score, replicate B": 0.81, "z-score, replicate C": 0.69}
{"target": "YIF1A", "mean z-score": -0.01, "z-score, replicate A": 0.04, "z-score, replicate B": -0.17, "z-score, replicate C": 0.09}
{"target": "QSER1", "mean z-score": -0.12, "z-score, replicate A": -0.01, "z-score, replicate B": -0.22, "z-score, replicate C": -0.15}
{"target": "UNC5C", "mean z-score": -0.74, "z-score, replicate A": -0.91, "z-score, replicate B": -0.8, "z-score, replicate C": -0.5}
{"target": "COQ9", "mean z-score": 0.48, "z-score, replicate A": 0.58, "z-score, replicate B": 0.1, "z-score, replicate C": 0.77}

No new results follow: entries from further up.
{"target": "PRR14L", "mean z-score": -1.39, "z-score, replicate A": -1, "z-score, replicate B": -1.69, "z-score, replicate C": -1.48}
{"target": "CAMK2A", "mean z-score": -0.78, "z-score, replicate A": -1.05, "z-score, replicate B": -0.69, "z-score, replicate C": -0.59}
